PubChem BioAssay AID1224833, University of Georgia – 2016

- Screen: 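Human genes whose knock-down alters rotavirus replication in monkey cells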 (primary screen)
- Cells: monkey MA104 kidney cells
- Knock-down reagent: siRNA pool against human genes, 50 nM
- Time to read-out: 48 h knock-down before infection; read 24 h after infection
- Challenge: infection with rotavirus strain RV3 two days after transfection; infectious dose for this stage not given
- Measured: 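Rotavirus antigen per well by fluorescent immunoassay, normalised to non-targeting control wells on each plate and given as a standard z-score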
- Direction: z-score vs non-targeting control: higher = more rotavirus replication than with non-targeting control
- Hit rule: In these data the active calls have z-score vs non-targeting control at about -1 or lower, or at about 1 or higher
- Meaning of the calls: active = z-score beyond 1 either way; inactive = z-score within 1 of zero
In all, the deposit lists about 12,000 reagents; shown is an unselected part. Over the whole deposit, about 5,600 (46%) were called active. 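Active calls cover z-scores past 1 in both directions, so they include lowered as well as raised rotavirus replication.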

| Target gene | z-score vs non-targeting control | outcome |
| --- | --- | --- |
| IL12A | 0.5 | inactive |
| CCNC | 1.41 | active |
| SCML4 | -0.325 | inactive |
| THUMPD1 | -0.969 | inactive |
| SLC2A1 | 1.92 | active |
| ZBBX | -0.472 | inactive |
| NUDT17 | -0.0974 | inactive |
| AASS | 0.82 | inactive |
| SLC38A9 | -0.489 | inactive |
| HS3ST2 | 2.21 | active |
| IPO9 | -0.617 | inactive |
| ADGRB2 | 2.27 | active |
| CALB1 | -2.44 | active |
| GDAP1 | -1.19 | active |
| FAM135B | 2.11 | active |
| ZFP1 | 0.0561 | inactive |
| LHCGR | -0.967 | inactive |
| TMEM257 (retired record) | 0.714 | inactive |
| FAM3B | 1.08 | active |
| MATN2 | -1.07 | active |
| OR13C3 | -1.36 | active |
| TAF11 | 1.75 | active |
| DNAJC13 | -0.282 | inactive |
| ZNF222 | -1.54 | active |
| IZUMO2 | -1.45 | active |
| DOCK11 | -0.141 | inactive |
| MMP23B | -0.693 | inactive |
| MN1 | -1.16 | active |
| TXLNA | 1.1 | active |
| ZNF358 | -0.326 | inactive |
| TFPI | -0.695 | inactive |
| OR8S1 | -0.205 | inactive |
| CDY2A | -1.65 | active |
| KRT40 | -1.32 | active |
| FOLR3 | -1.5 | active |
| NMRAL1 | 0.714 | inactive |
| CRNKL1 | -1.21 | active |
| TMEM205 | 0.287 | inactive |
| VCPIP1 | -0.209 | inactive |
| MAVS | -1.35 | active |
| ATF4 | -3.43 | active |
| SFXN5 | 0.685 | inactive |
| FAAH | -1.07 | active |
| YTHDF2 | 0.938 | inactive |
| CALHM3 | -1.06 | active |
| OR52J3 | -0.447 | inactive |
| TNFRSF12A | -2.06 | active |
| FAT4 | -0.658 | inactive |
| STPG2 | 0.87 | inactive |
| GPD1L | -1.11 | active |
| TMEM237 | -1.21 | active |
| LCN9 | 1.58 | active |
| SARS2 | -1.8 | active |
| OR11G2 | -0.4 | inactive |
| C14orf93 | -2.48 | active |
| OR51F1 | -0.512 | inactive |
| TNS2 | 0.65 | inactive |
| RAP1GAP | -1.17 | active |
| ETV1 | -0.773 | inactive |
| NIT2 | -1.97 | active |
| GLDN | -0.477 | inactive |
| DUX5 | -0.908 | inactive |
| TPPP2 | 0.388 | inactive |
| GINS4 | -0.151 | inactive |
| ARFGAP3 | -2 | active |
| NBPF10 | -0.907 | inactive |
| CGB2 | -0.249 | inactive |
| DDB2 | 1.95 | active |
| RAB42 | -1.72 | active |
| SMAD7 | -1.64 | active |
| TMEM18 | 0.12 | inactive |
| DNAJC25 | -1.15 | active |
| CCN4 | -0.476 | inactive |
| C1orf159 | 2.06 | active |
| STOM | -0.473 | inactive |
| CLDN16 | -2.03 | active |
| FRMD6 | 0.0074 | inactive |
| NLRP10 | -1.71 | active |
| SEMA3F | 1.68 | active |
| ABCA12 | 1.25 | active |
| AFF1 | -1.17 | active |
| BIN2 | -0.889 | inactive |
| GZF1 | -1.56 | active |
| TTC16 | 0.796 | inactive |
| KBTBD3 | 0.754 | inactive |
| CDK5RAP2 | -0.551 | inactive |
| KRTAP5-7 | -1.78 | active |
| SKIC3 | -0.593 | inactive |
| CEP126 | -1.9 | active |
| MSH3 | 0.576 | inactive |
| SNRPD2 | -0.998 | inactive |
| CNOT2 | -1.29 | active |
| SAMD9L | -0.189 | inactive |
| OR11L1 | -0.907 | inactive |
| TTLL4 | -0.569 | inactive |
| TULP1 | 1.97 | active |
| MPZL3 | -1.56 | active |
| NDUFA7 | -2.3 | active |
| GTF2H3 | -0.811 | inactive |
| COL6A1 | -1.9 | active |
| ING2 | -1.59 | active |
| ADCY7 | -0.627 | inactive |
| USP17L2 | -1.31 | active |
| SHKBP1 | 1.17 | active |
| CHST15 | -0.534 | inactive |
| LUZP1 | -2.6 | active |
| FKBP6 | -1.5 | active |
| ABLIM1 | -0.638 | inactive |
| ACOT8 | -0.6 | inactive |
| DALRD3 | -1.81 | active |
| PBX4 | -0.622 | inactive |
| ATOX1 | -0.809 | inactive |
| GRAMD1B | -0.916 | inactive |
| DDX21 | 1.32 | active |
| COX4I2 | 0.534 | inactive |
| METAP1 | 0.953 | inactive |
| BBOF1 | -1.02 | active |
| DNAL1 | 0.229 | inactive |
| TLCD3B | -0.572 | inactive |
| KRTAP5-6 | 0.486 | inactive |
| OR4A47 | -1.3 | active |
| NEUROG1 | 0.0939 | inactive |
| TMEM209 | 0.511 | inactive |
| CCK | -0.59 | inactive |
| GCNA | 0.623 | inactive |
| SGCB | 0.228 | inactive |
| SLC5A8 | -0.465 | inactive |
| TFE3 | -0.686 | inactive |
| MARS1 | -2.11 | active |
| ACAN | -0.733 | inactive |
| NCKAP5L | -3.68 | active |
| ARRDC1-AS1 | 0.156 | inactive |
| MEF2A | -0.898 | inactive |
| SERPINB12 | 1.87 | active |
| PNRC1 | 1.07 | active |
| RASGEF1A | -1.75 | active |
| TMPRSS11B | -0.8 | inactive |
| MKX | -0.351 | inactive |
| KDELR3 | 2.51 | active |
| TAB2 | 0.113 | inactive |

19 neighbouring entries already listed:
| Target gene | z-score vs non-targeting control | outcome |
| --- | --- | --- |
| VCPIP1 | -0.209 | inactive |
| MAVS | -1.35 | active |
| ATF4 | -3.43 | active |
| SFXN5 | 0.685 | inactive |
| FAAH | -1.07 | active |
| YTHDF2 | 0.938 | inactive |
| CALHM3 | -1.06 | active |
| OR52J3 | -0.447 | inactive |
| TNFRSF12A | -2.06 | active |
| FAT4 | -0.658 | inactive |
| STPG2 | 0.87 | inactive |
| GPD1L | -1.11 | active |
| TMEM237 | -1.21 | active |
| LCN9 | 1.58 | active |
| SARS2 | -1.8 | active |
| OR11G2 | -0.4 | inactive |
| C14orf93 | -2.48 | active |
| OR51F1 | -0.512 | inactive |
| TNS2 | 0.65 | inactive |
